# PubChem BioAssay AID1259414 – Drosophila RNAi Screening Center | 2018
# Assay: 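Genome-wide screen for host control of endosymbiont load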 (primary screen)
# Cell system: Drosophila JW18 cells infected with Wolbachia
# Knock-down reagent: long dsRNA against Drosophila genes, 0.25 µg dsRNA per well of a 384-well plate
# Time to read-out: 5 days
# Challenge: cells persistently infected with Wolbachia before knock-down; no added drug
# Detection: 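Automated imaging of bacterial rRNA staining divided by host cell count, reported as plate-normalised robust z-score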
# Direction: Wolbachia per cell robust z: higher = more Wolbachia per host cell than the plate typical
# Hit rule: 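Hit when robust z is 1.5 or more, or -1.5 or less, in at least two of three replicates; excludes dsRNAs with several or no targets, genes not expressed in JW18 and well A1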
# In all, the deposit lists about 24,000 reagents; below is an unselected part of those that have a named target and a result. In the full data, about 1,210 (5%) were called active. 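Inactive calls also include excluded dsRNAs with several or no targets, genes unexpressed in JW18, and well A1, regardless of score.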 Names joined by + are all predicted targets of the reagent.
Target gene,DRSC id,"Wolbachia per cell robust z, rep 1","Wolbachia per cell robust z, rep 2","Wolbachia per cell robust z, rep 3",outcome
CG10252,DRSC14221,-1.11,-0.226,-0.149,inactive
ACXA (Adenylyl cyclase X A),DRSC00844,-1.54,-2.06,1.22,inactive
ACXA (Adenylyl cyclase X A),DRSC25338,1.23,-1.18,0.98,inactive
CG11095,DRSC19375,0.0209,-0.609,0.486,inactive
CG11095,DRSC26123,-0.292,-1.27,-0.188,inactive
mof (males absent on the first),DRSC18795,0.44,-2.8,0.231,inactive
mof (males absent on the first),DRSC24125,-0.163,-2.05,-1.4,inactive
hth (homothorax),DRSC16967,0.304,-0.607,-0.894,inactive
hth (homothorax),DRSC24749,-1.42,-0.109,0.501,inactive
aPKC (atypical protein kinase C),DRSC05515,-0.936,0.474,0.461,inactive
aPKC (atypical protein kinase C),DRSC07639,-2.12,-3.08,1.03,active
aPKC (atypical protein kinase C),DRSC28133,0.0277,-0.113,0.263,inactive
aPKC (atypical protein kinase C),DRSC29936,-0.942,-0.388,0.165,inactive
CCKLR-17D1 (Cholecystokinin-like receptor at 17D1),DRSC20011,0.431,0.192,-0.252,inactive
CCKLR-17D1 (Cholecystokinin-like receptor at 17D1),DRSC20012,-1.62,-1.04,-0.3,inactive
CCKLR-17D1 (Cholecystokinin-like receptor at 17D1),DRSC28081,0.737,1.39,1.22,inactive
CG16854,DRSC02536,0.205,-1.15,1.18,inactive
natalisin,DRSC14967,-1.27,-1.32,0.0685,inactive
natalisin,DRSC23390,-0.26,0.154,-0.574,inactive
natalisin,DRSC26336,0.598,0.409,-0.564,inactive
CG2211,DRSC08559,-1.63,1.13,1,inactive
CG10903,DRSC14281,0.839,-0.938,0.754,inactive
Kap3 (Kinesin associated protein 3),DRSC19426,0.554,-0.156,-1.09,inactive
Kap3 (Kinesin associated protein 3),DRSC25680,-1.48,0.566,-0.911,inactive
zfh1 (Zn finger homeodomain 1),DRSC17098,6.78,6.54,6.14,active
zfh1 (Zn finger homeodomain 1),DRSC26931,4.73,7.78,8.14,active
NijB (Ninjurin B),DRSC09850,-0.353,-1.83,0.247,inactive
CG4313,DRSC18514,-1.5,1.32,-2.94,inactive
CG4313,DRSC24627,0.927,2.02,0.0981,inactive
CG4650,DRSC02767,1.69,-1.27,-0.434,inactive
Nak (Numb-associated kinase),DRSC03379,0.0387,0.0757,-1.23,inactive
Nak (Numb-associated kinase),DRSC27565,-1.14,-2.94,-0.683,inactive
pkm (Pinkman),DRSC19674,-1.56,0.169,0.217,inactive
pkm (Pinkman),DRSC29050,0.0974,-6.71,-0.225,inactive
CG8541,DRSC10989,0.295,0.773,0.498,inactive
CG8541,DRSC25235,-0.222,-0.191,-0.575,inactive
Vm26Ab (Vitelline membrane 26Ab),DRSC03473,-4.54,-4.19,-3.54,inactive
Vm26Ab (Vitelline membrane 26Ab),DRSC25223,-1.19,-0.12,-1.28,inactive
rdgC (retinal degeneration C),DRSC10069,-0.697,-1.11,-1.83,inactive
rdgC (retinal degeneration C),DRSC11387,-0.583,-0.975,-0.501,inactive
TfIIS (RNA polymerase II elongation factor),DRSC03455,-0.203,1.04,-0.235,inactive
TfIIS (RNA polymerase II elongation factor),DRSC24533,1.2,0.0641,0.265,inactive
Or49b (Odorant receptor 49b),DRSC07494,0.243,0.493,0.501,inactive
Ir21a + asRNA:CR43609,DRSC00528,-2.67,-0.859,0.775,inactive
Mcm10 (Minichromosome maintenance 10),DRSC03162,0.622,0.963,0.75,inactive
Mcm10 (Minichromosome maintenance 10),DRSC27996,0.575,0.725,1.02,inactive
CG17724,DRSC06687,0.675,-6.33,-0.185,inactive
CG17724,DRSC27618,0.85,0.594,0.457,inactive
CG13065,DRSC09948,-0.739,-0.443,1.49,inactive
CG13065,DRSC28005,0.0371,0.00216,1.43,inactive
CG14357,DRSC14820,-0.42,-2.05,0.545,inactive
CG14357,DRSC28685,-0.722,-1.59,-1.42,inactive
Prosbeta5R1 (Proteasome beta5 subunit-related 1),DRSC04581,-0.177,-4.02,0.424,inactive
Prosbeta5R1 (Proteasome beta5 subunit-related 1),DRSC29901,0.323,0.833,-0.144,inactive
CG7115,DRSC02000,-1.25,0.463,0.265,inactive
CG7115,DRSC29878,1.22,0.372,0.609,inactive
bcn92,DRSC18741,-2.08,0.561,0.372,inactive
bcn92,DRSC28946,-1.09,-4.87,-0.617,inactive
lobo (lost boys),DRSC14662,0.424,0.162,-3.8,inactive
lobo (lost boys),DRSC14663,-1.5,0.473,-4.63,inactive
lobo (lost boys),DRSC29681,-1.52,-0.761,-0.907,inactive
Damm (Death associated molecule related to Mch2 caspase),DRSC07393,-0.617,0.0819,-2.93,inactive
Charon,DRSC00679,0.617,-0.341,0.0345,inactive
asRNA:CR42738 + CG14610,DRSC12554,0.0961,-3.34,-1.96,inactive
ndl (nudel),DRSC11374,-0.56,-0.0376,-5.12,inactive
ndl (nudel),DRSC26902,0.432,0.437,0.311,inactive
Sec63 (Secretory 63),DRSC11002,0.116,-0.811,0.121,inactive
lncRNA:CR43132 (long non-coding RNA:CR43132),DRSC19484,-3.71,-0.422,-0.739,inactive

As entered above:
pkm (Pinkman) [DRSC19674], outcome → inactive
Ir21a + asRNA:CR43609 [DRSC00528], Wolbachia per cell robust z, rep 1: -2.67
Under “Wolbachia per cell robust z, rep 1”, CG10903 [DRSC14281] is entered as 0.839
Result of lncRNA:CR43132 (long non-coding RNA:CR43132) [DRSC19484] in “Wolbachia per cell robust z, rep 3”: -0.739
